Compound potency records, mixed from different reports. Data source: NIAID ChemDB in PubChem.

All rows: tests on isolated targets; organism: HIV-1; protein: Reverse transcriptase; read by: nucleotide incorporation / radiometric; read-out: IC50

a–b is a range or a potency band.

N#Cc1cc(Cl)cc(Oc2cc(F)cc(OCc3[nH]nc4ncccc34)c2)c1 ; value: <20 µM
CCN1c2ncc(CCOc3ccc(NC(=O)CC(C)(C)C(=O)O)c4ccccc34)cc2C(=O)N(C)c2cccnc21 ; mutations: RT-V106A ; value: >1 µM
Nc1nc2c(ncn2[C@H]2CC[C@@H](COP(=O)(O)OP(=O)(O)OP(=O)(O)OP(=O)(O)OC[C@@H]3CC[C@H](n4cnc5c(=O)[nH]c(N)nc54)O3)O2)c(=O)[nH]1 ; strain: WT ; value: 1.8 µM
Cc1ccccc1CN1C(C)C(=O)Nc2ccc(Cl)cc2S1(=O)=O ; value: 3.91 µM
CCN1c2ncc(CCOc3ccc(CCC(=O)O)c4ccccc34)cc2C(=O)N(C)c2ccc(F)nc21 ; mutations: RT-Y188L ; value: >1 µM
N#Cc1cc(Cl)cc(Oc2cc(OCC(=O)Nc3ccncc3C(F)(F)F)ccc2Cl)c1 ; value: <20 µM
CCN1c2ncc(CCOc3cccc4c3CNC(=O)N4)cc2-c2nc(C)cn2-c2cccnc21 ; mutations: RT-K103N Y181C ; value: >0.1 µM
CNc1ccccc1C(=O)O[C@H]1[C@@H](O)[C@H](n2cnc3c(N)ncnc32)O[C@@H]1COP(=O)(O)OP(=O)(O)OP(=O)(O)OP(=O)(O)OC[C@@H]1CC[C@H](n2cnc3c(=O)[nH]c(N)nc32)O1 ; strain: WT ; value: 16 µM
CC(C)=CCN1C(C)C(=O)Nc2ccc(Cl)cc2S1(=O)=O ; value: 0.94 µM
CCN1c2ncc(CCOc3cccc4c3ccc[n+]4[O-])cc2C(=O)N(C)c2ccc(Cl)nc21 ; mutations: RT-K103N Y181C ; value: 0.051 µM
Cn1c(Nc2cccc(-c3ccc(C#N)cc3)c2)cc(=O)n(O)c1=O ; value: 10 µM
CCOC(=O)N1c2cccc(OCCc3cnc4c(c3)-c3nccn3-c3c(C)ccnc3N4CC)c2CS1(=O)=O ; value: <0.05 µM
N#Cc1cc(Cl)cc(Oc2cc(Cl)cc(OCC(=O)NC3CCS(=O)(=O)C3)c2)c1 ; value: <20 µM
CCN1c2ncc(CCOc3ccc(C(=O)O)cc3C)cc2-c2ncc(C)n2-c2cccnc21 ; mutations: RT-K103N Y181C ; value: <0.05 µM
CCN1c2ncc(CCOc3ccc(C(=O)O)c4ccccc34)cc2C(=O)N(C)c2ccc(C)nc21 ; mutations: RT-K103N Y181C ; value: 0.1–1 µM
O=C(O)c1cn(CC2(c3ccccc3)CCCC2)cc(O)c1=O ; value: 8.2 µM
COc1cccc(-c2ccc(Oc3cc(=O)n(O)c(=O)n3C)cc2)c1 ; value: >25 µM
Cc1cccc(CN2C(C)C(=O)Nc3ccc(Cl)cc3S2(=O)=O)c1 ; value: 1 µM
CCN1c2ncc(CCOc3ccc(C(=O)O)cc3C)cc2-c2nccn2-c2cccnc21 ; mutations: RT-K103N Y181C ; value: >0.1 µM
N#Cc1cc(Cl)cc(Oc2cc(F)cc(OCc3[nH]nc4nc(N)ccc34)c2)c1 ; value: <20 µM
CC(=O)O[C@]1(C)/C=C/C[C@@H](C)/C=C/[C@@]2(C)CC[C@@H](C(C)(C)O)[C@@H]2[C@@H](O)C1 ; value: >40 µM
Cc1cc(OCc2nc3ccccc3s2)cc(Oc2cc(Cl)cc(C#N)c2)c1 ; value: <20 µM
Nc1nc2c(ncn2[C@H]2CC[C@@H](COP(=O)(O)OP(=O)(O)OP(=O)(O)OP(=O)(O)OC[C@H]3O[C@@H](n4cnc5c(N)ncnc54)[C@H](O)[C@@H]3O)O2)c(=O)[nH]1 ; strain: WT ; value: 6.8 µM
N#Cc1cc(Cl)cc(Oc2cc(CCc3[nH]nc4ncccc34)ccc2Cl)c1 ; value: <20 µM
CCN1c2ncc(CCOc3ccc(CC(=O)O)c4c3CCCC4)cc2C(=O)N(C)c2ccc(Cl)nc21 ; mutations: RT-Y188L ; value: 0.1–1 µM
CCN1c2ncc(CCOc3cccc4c3C=CS(=O)(=O)N4C)cc2-c2ncc(C)n2-c2cccnc21 ; mutations: RT-K103N Y181C ; value: <0.05 µM

For reference, 3 entries again:

COc1cccc(-c2ccc(Oc3cc(=O)n(O)c(=O)n3C)cc2)c1 ; value: >25 µM
N#Cc1cc(Cl)cc(Oc2cc(CCc3[nH]nc4ncccc34)ccc2Cl)c1 ; value: <20 µM
CCN1c2ncc(CCOc3ccc(C(=O)O)cc3C)cc2-c2ncc(C)n2-c2cccnc21 ; mutations: RT-K103N Y181C ; value: <0.05 µM

Conditions beyond the fields shown may differ between rows. ICn: concentration for n% inhibition.